# Data: PubChem BioAssay AID603 (National Center for Advancing Translational Sciences (NCATS), 2007)
# The entries are a selection whose mix differs from that of the whole data set. Active and inactive are the calls of the source. The call rests on the fitted dose curve; in most records, active means well fitted curve in the direction sought with a large enough effect; inconclusive means small, poorly fitted or top-dose-only effect; inactive means flat fitted curve, though single readings scatter.
# Test system: DNA polymerase III holoenzyme (E. coli)
# Experiment: qHTS Assay for Inhibitors of DNA Polymerase III Holoenzyme System
# Settings: reconstituted DNA polymerase III holoenzyme replication, biochemical; at 57.1 µM (top of the series) unless noted
# Procedure: NIH Molecular Libraries Screening Centers Network [MLSCN]
# NIH Chemical Genomics Center [NCGC]
# Assay Provider: Charles McHenry, University of Colorado
# E. coli DNA polymerase III holoenzyme complex was assayed for DNA production by fluorescent detection of the double-stranded DNA product with PicoGreen dye. The holoenzyme complex was reconstituted from the following purified protein components: DNA Polymerase III, beta subunit processivity factor, SSB single-stranded DNA binding protein, and Primase. Single-stranded, circular M13Gori was used as a substrate with dNTPs and NTPs also supplied to the substrate reagent. Compounds from the NCGC collection were incubated with the holoenzyme mixture for 15 min at room temperature to allow binding to occur, and then the reaction was started by the addition of substrate. After 30 min incubation at room temperature, PicoGreen solution containing EDTA was added to stop the reaction and to visualize the double-stranded DNA produced. Reaction progress was measured in a ViewLux CCD imager in fluorescence intensity mode by using 480 nm excitation and 540 nm emission filter set.
# NCGC Assay Protocol Summary:
# Buffer. 50 mM Hepes-KOH, pH 7.5, 5 % Glycerol, 0.02% NP40, 30 mM potassium;
# glutamate, 1.5 mM Magnesium Acetate, 16 uM TCEP.
# Buffer in columns 3 and 4 as negative control (no enzyme).
# Substrate solution: 5 uM each dATP, dGTP, dCTP and TTP, 50 uM each GTP, CTP, UTP and 200 uM ATP, 1.4 nM M13gori (final concentrations).
# Enzyme: 154 nM SSB, 2 nM Primase, 1 nM Beta, 0.35 nM Pol III (final concentrations).
# PicoGreen/EDTA: 10 mM Tris-HCl, 10 mM EDTA, 5 uM PicoGreen (final concentrations).
# Control titration: ChemBridge 5805060 (from 10 mM, then 1:2, in duplicate) was pin-transferred to upper half of column 2.
# Three uL of holoenzyme mixture were dispensed to 1536-well Greiner black solid bottom plates. Compounds and controls (23 nL) were transferred via Kalypsys PinTool. The plates were incubated for 15 min at room temperature, and then 1 uL of substrate solution was added to start the reaction. After room temperature incubation for 35 minutes, 1 uL of PicoGreen solution was added to each well and the plates were read 480 nm excitation and 540 nm emission using ViewLux (Perkin-Elmer) High-throughput CCD imager and fluorescence protocol settings.
# Keywords: NIH Roadmap, MLSCN, MLI, MLSMR, qHTS, NCGC, DNA Polymerase III, DNAPol3, DNAPoly3, DNA replication targets
# On the % scale 0 is the no-effect control and ±100 the full control effect.
row,SMILES,"activity change, negative = inhibition"
1,CP(=O)(Nc1ccccc1F)Oc1ccccc1 (stereo not given),inactive: 0.4%
2,Cc1cccc([N+](=O)[O-])c1[N+](=O)[O-],inactive: -1.8%
3,CCC(C)(OO)OOC(C)(CC)OO (stereo not given),inactive: -4.3%
4,Cc1ccc([N+](=O)[O-])c([N+](=O)[O-])c1,inactive: 1.1%
5,Cc1c([N+](=O)[O-])cccc1[N+](=O)[O-],inactive: -0.7%
6,CN(C)CCOC(=O)C(O)(c1ccccc1)C1CCCCC1 (stereo not given),inactive: -5.7%
7,CP(=O)(Nc1ccc2c(c1)OCCO2)Oc1ccccc1 (stereo not given),inactive: -5.8%
8,NNC(NN)NN.n1nc(-c2nn[nH]n2)n[nH]1,inactive: -6.1% [at 11.4 µM]
9,[NH4+].[O-][Cl+3]([O-])([O-])[O-],inactive: -0.8%
10,Cc1ccccc1NP(C)(=O)Nc1ccccc1C,inactive: -4.3%
11,CCOP(=O)(CC)OCC,inactive: -0.9%
12,CCOP(C)(=S)SCC(=O)NC(C)(CC)C(=O)O (stereo not given),inactive: -6.9%
13,N#[O+].[C-]#N.[C-]#N.[C-]#N.[C-]#N.[C-]#N.[Fe+2].[Na+].[Na+],inactive: -28.9%
14,CP(=O)(Oc1ccccc1)N1CCOC1=O (stereo not given),inactive: -1.1%
15,COc1ccccc1OP(C)(=O)Nc1c(C)n(C)n(-c2ccccc2)c1=O (stereo not given),inactive: -0.1%
16,C/C1=C2N=C(/C=C3N=C(/C(C)=C4\[N-][C@@](C)([C@H]5N=C1[C@@](C)(CCC(=O)NC[C@H](C)OP(=O)([O-])O[C@@H]1[C@H](O)[C@H](n6cnc7cc(C)c(C)cc76)O[C@@H]1CO)[C@@H]5CC(N)=O)[C@](C)(CC(N)=O)[C@H]4CCC(N)=O)[C@@](C)(CC(N)=O)[C@@H]\3CCC(N)=O)C(C)(C)[C@@H]/2CCC(N)=O.[C-]#N.[Co+3],inactive: 8.5% [at 25.6 µM]
17,Cc1nc2ccc3ccccc3c2o1.O=[N+]([O-])c1cc([N+](=O)[O-])c(O)c([N+](=O)[O-])c1,inactive: -3.4%
18,COc1ccccc1OP(C)(=O)Nc1ccc(C)c(C)c1 (stereo not given),inactive: -2.3%
19,CP(=O)(Nc1ccccn1)Oc1ccccc1 (stereo not given),inactive: -8.3%
20,O=[N+]([O-])[O-].[NH4+],inactive: -6.1%
21,Cc1ccc(NP(C)(=O)Oc2ccccc2)c(C)c1 (stereo not given),inactive: -6.2%
22,COc1ccccc1OP(C)(=O)Nc1ccc(C)cc1 (stereo not given),inactive: -2.9%
23,CP(=S)(Nn1cnnc1)Oc1ccccc1 (stereo not given),inactive: -3.7%
24,N1=C(c2nnc(-c3nn[nH]n3)nn2)NNN1,inactive: -1.8% [at 11.4 µM]
25,CCOP(C)(=S)SCC(=O)NC(C)C(=O)O (stereo not given),inactive: -0.7%
26,CP(=O)(NC(=O)Nc1ccccc1)Oc1ccccc1 (stereo not given),inactive: 1.8%
27,Cc1nc2ccc3ccccc3c2s1.O=[N+]([O-])c1cc([N+](=O)[O-])c(O)c([N+](=O)[O-])c1,inactive: -3.2%
28,Cc1ccc([N+](=O)[O-])cc1[N+](=O)[O-],inactive: -1.9%
29,O=[N+]([O-])c1cccc([N+](=O)[O-])c1,inactive: -3.2%
30,Cc1ccc(C)c(NP(C)(=O)Oc2ccccc2)c1 (stereo not given),inactive: 4.4%
